The record followed here is patent US5674835, “Papillomaviral expression inhibitors” (New England Medical Center Hospitals, Inc.).

Where cells or extracts were used, other partners may take part. Tags and fusion partners may be left off the protein sequences shown.

The data set concerns the target T1, E2 protein from BPV-transformed C127 cells (ID14) nuclear fractions (Bovine papillomavirus type 1) (UniProt P03122).
T1 sequence (looked up, limits assumed): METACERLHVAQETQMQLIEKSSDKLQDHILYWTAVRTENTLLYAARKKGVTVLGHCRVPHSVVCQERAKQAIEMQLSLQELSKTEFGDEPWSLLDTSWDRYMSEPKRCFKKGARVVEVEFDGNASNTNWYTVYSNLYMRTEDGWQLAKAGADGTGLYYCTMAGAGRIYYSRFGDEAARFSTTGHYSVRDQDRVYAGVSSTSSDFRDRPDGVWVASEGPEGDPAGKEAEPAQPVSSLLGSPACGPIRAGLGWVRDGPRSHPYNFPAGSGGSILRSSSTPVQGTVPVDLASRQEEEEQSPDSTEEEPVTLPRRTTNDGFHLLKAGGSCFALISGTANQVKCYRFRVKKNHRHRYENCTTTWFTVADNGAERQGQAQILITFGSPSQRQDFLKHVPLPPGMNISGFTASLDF
In words: competition with a labelled probe. Particulars: blocked immunoprecipitation of 233 bp fragment; protein in an extract.

Regarding “CGTCAAACCGTCTTCGGTGCTC (double strand) [23 bp URR fragment with E2 site IIIb]”, the binding result was “binds”.
